A mixed list of measured activities; the numbers were collected in NIAID ChemDB.

Common to all: growth or infection tests

Inhibition is in % at the dose shown (toxicity tests: loss of growth or viability).

structure	method	endpoint	cell line	agent	strain or isolate	tested at	result
CCC(CC)[C@H](NC(C)=O)[C@@H]1[C@H](O)[C@@H](C(=O)O)C[C@H]1N=C(N)N	visual reading	EC50	MDCK	Influenza A virus	Influenza A/Beijing/32/92 (H3N2)	-	0.07 µM
CCC(CC)O[C@@H]1C=C(C(=O)O)C[C@H](N)[C@H]1NC(C)=O	plaque count	EC50	MDCK	Influenza B virus	Isolate G62	-	0.04 µg/mL
CCOC(=O)/C=C/[C@H](C[C@@H]1CCNC1=O)NC(=O)[C@@H](CC(=O)[C@@H](NC(=O)c1cc(C)on1)C(C)C)Cc1ccc(F)cc1	cytopathic effect / visual reading	EC50	OHIO HELA-I	Rhinovirus	Isolate 27	-	0.01 µg/mL
CCOC(=O)c1ccc(OCCC2CCN(c3ccc(C)nn3)CC2)cc1	neutral red	EC50	KB	Rhinovirus	CH47 (ICAM-1 receptor group 57)	-	0.079 µM
O=S(=O)([O-])c1ccc(NS(=O)(=O)c2ccccc2)c2c(S(=O)(=O)[O-])cccc12	cytopathic effect	inhibition	Human embryonic lung cells	Adenovirus	TYPE 3	5 µg/mL	0%
O=c1[nH]c(=O)n([C@@H]2O[C@H](CO)[C@@H](O)[C@@H]2O)cc1/C=C/Br	plaque count	inhibition	HELF	Varicella zoster virus	OKA	0.01 µg/mL	100%
Cc1ccc(C(=O)Nc2ccc(S(=O)(=O)O)c3cc(S(=O)(=O)O)cc(S(=O)(=O)O)c23)cc1NC(=O)c1cccc(NC(=O)Nc2cccc(C(=O)Nc3cc(C(=O)Nc4ccc(S(=O)(=O)O)c5cc(S(=O)(=O)O)cc(S(=O)(=O)O)c45)ccc3C)c2)c1	cytopathic effect	inhibition	Human embryonic lung cells	Adenovirus	TYPE 3	10 µg/mL	0%
Cc1cn([C@@H]2O[C@H](CO)[C@@H](O)[C@@H]2O)c(=O)[nH]c1=O	plaque count	inhibition	HELF	Varicella zoster virus	Asahikawa	0.01 µg/mL	0%
O=C(Nc1ccc2c(O)c(N=Nc3ccc(N=Nc4ccc(S(=O)(=O)O)cc4)cc3)c(S(=O)(=O)O)cc2c1)c1ccccc1	cytopathic effect	inhibition	Human conjunctiva cells	Herpes simplex virus	-	5 µg/mL	0%
Oc1ccc(O)c(C=Nc2ccccc2O)c1	broth dilution	MIC	-	Cryptococcus neoformans	28JF	-	11.3 µg/mL
O=c1[nH]c(=O)n([C@H]2C[C@H](O)[C@@H](CO)O2)cc1/C=C/Br	plaque count	inhibition	HELF	Varicella zoster virus	Ohtomo	0.1 µg/mL	100%
Oc1ccccc1N=Cc1ccccc1	-	MIC99	-	Cryptococcus gattii	23/10993	-	5.7 µg/mL
C=CCc1ccc(OC)c(OC)c1	turbidity	MIC90	-	Candida tropicalis	3056	-	340 µg/mL
O=C(Nc1cc(S(=O)(=O)[O-])cc2cc(S(=O)(=O)[O-])ccc12)c1ccccc1	cytopathic effect	inhibition	Human amnion AV3 cells	Rhinovirus	-	10 µg/mL	0%
Oc1cccc(C=Nc2ccccc2O)c1	-	MIC99	-	Cryptococcus neoformans	28JF	-	5.7 µg/mL
O=S(=O)([O-])c1ccc(O)c2ccccc12	cytopathic effect	inhibition	Human embryonic lung cells	Adenovirus	TYPE 3	50 µg/mL	0%
Oc1ccccc1C=Nc1ccccc1O	-	MIC99	-	Cryptococcus gattii	ATCC 24065	-	4 µg/mL
Nc1nc(=O)n([C@@H]2O[C@H](CO)[C@@H](O)[C@@H]2F)cc1I	plaque count	inhibition	HELF	Varicella zoster virus	HIRAI	0.001 µg/mL	0%
Nc1cccc(S(=O)(=O)O)c1	cytopathic effect	inhibition	Human embryonic lung cells	Rhinovirus	-	5 µg/mL	0%
O=c1[nH]c(=O)n([C@@H]2O[C@H](CO)[C@@H](O)[C@@H]2O)cc1/C=C/Cl	plaque count	inhibition	HELF	Varicella zoster virus	YS	0.0001 µg/mL	0%
Nc1ccc2c(O)cc(S(=O)(=O)[O-])cc2c1S(=O)(=O)[O-]	cytopathic effect	inhibition	Human amnion AV3 cells	Adenovirus	TYPE 3	50 µg/mL	0%

For reference, 3 entries again:

structure | method | endpoint | cell line | agent | strain or isolate | tested at | result
Oc1cccc(C=Nc2ccccc2O)c1 | - | MIC99 | - | Cryptococcus neoformans | 28JF | - | 5.7 µg/mL
CCOC(=O)c1ccc(OCCC2CCN(c3ccc(C)nn3)CC2)cc1 | neutral red | EC50 | KB | Rhinovirus | CH47 (ICAM-1 receptor group 57) | - | 0.079 µM
Oc1ccccc1N=Cc1ccccc1 | - | MIC99 | - | Cryptococcus gattii | 23/10993 | - | 5.7 µg/mL

ECn: concentration that inhibits the pathogen or its effect by n%. Rows are shuffled and stem from different studies. MIC50, MIC90 and the like: level of inhibition, or share of isolates inhibited. Blank or dashed fields: not listed here.